Results of unrelated studies side by side (data: NIAID ChemDB).

Common to all: whole-cell or culture tests; species: Mycobacterium avium complex; endpoint: MIC

An empty or dashed field is not shown.

structure	strain or isolate	method	result
O=C(O)c1cn(C2CC2)c2c(F)c(N3CCS(=O)(=O)CC3)c(F)cc2c1=O	PI12/39		2 µg/mL
CC(C)N=c1cc2n(-c3ccc(Cl)cc3)c3ccccc3nc-2cc1Nc1ccc(Cl)cc1	969/HIV-		0.12 µg/mL
CC1CCN(c2c(F)cc3c(=O)c(C(=O)O)cn(C4CC4)c3c2F)C1	1172733		2 µg/mL
NCCC(O)C(N)CC(=O)NC1CNC(=O)C(C2CCN=C(N)N2)NC(=O)/C(=C/NC(N)=O)NC(=O)C(CO)NC(=O)C(CO)NC1=O	13034 (serotype 18)		100 µg/mL
CN1CCN(c2cc3c(cc2F)c(=O)c(C(=O)O)cn3-c2ccc(F)cc2)CC1	3217		16 µg/mL
CCn1cc(C(=O)O)c(=O)c2cc(F)c(N3CCNCC3)cc21	CIPT 14031005		>40 µg/mL
C[C@@H]1CN(c2c(F)c(N)c3c(=O)c(C(=O)O)cn(C4CC4)c3c2F)C[C@H](C)N1	9	broth dilution	2 µg/mL
CN(C)C1CCN(c2c(F)cc3c(=O)c(C(=O)O)cn(C4CC4)c3c2F)C1	PI12/39		0.5 µg/mL
CCn1cc(C(=O)O)c(=O)c2cc(F)c(N3CCNCC3)nc21	CIPT 14031006		5 µg/mL
CC1CN(c2cc3c(cc2F)c(=O)c(C(=O)O)cn3-c2ccc(F)cc2F)CCN1	3220		8 µg/mL
O=C(O)c1cn(C2CC2)c2c(F)c(N3CCC(n4ccnc4)C3)c(F)cc2c1=O	1915112		16 µg/mL
NCC[C@H](O)C(=O)N[C@@H]1C[C@H](N)[C@@H](O[C@H]2O[C@H](CN)[C@@H](O)[C@H](O)[C@H]2O)[C@H](O)[C@H]1O[C@H]1O[C@H](CO)[C@@H](O)[C@H](N)[C@H]1O	CH-5/HIV+		1.25 µg/mL
CO[C@H]1/C=C/O[C@@]2(C)Oc3c(C)c(O)c4c(O)c(c(/C=N/N5CCN(C/C=C/c6ccccc6)CC5)c(O)c4c3C2=O)NC(=O)/C(C)=C\C=C\[C@H](C)[C@H](O)[C@@H](C)[C@@H](O)[C@@H](C)[C@H](OC(C)=O)[C@@H]1C	SK-22		0.06 µg/mL
NCCC(O)C(N)CC(=O)NC1CNC(=O)C(C2CCN=C(N)N2)NC(=O)/C(=C/NC(N)=O)NC(=O)C(CO)NC(=O)C(CO)NC1=O	TMC 1406		6.25 µg/mL
O=C(O)c1cn(C2CC2)c2c(F)c(N3CC4CCCC(C3)N4)c(F)cc2c1=O	PI12/39		8 µg/mL
CC[C@@H](CO)NCCN[C@@H](CC)CO	3090-4		1.9 µg/mL
NCCC[C@H](N)CC(=O)N[C@H]1CNC(=O)[C@H]([C@H]2C[C@H](O)NC(N)=N2)NC(=O)/C(=C/NC(N)=O)NC(=O)[C@H](CO)NC(=O)[C@H](CO)NC1=O	Isolate 93		25 µg/mL
CO[C@H]1/C=C/O[C@@]2(C)Oc3c(C)c(O)c4c(O)c(c(/C=N/N5CCN(C)CC5)c(O)c4c3C2=O)NC(=O)/C(C)=C\C=C\[C@H](C)[C@H](O)[C@@H](C)[C@@H](O)[C@@H](C)[C@H](OC(C)=O)[C@@H]1C	3217		0.5 µg/mL
CO[C@H]1/C=C/O[C@@]2(C)Oc3c(C)c(O)c4c(O)c(c(/C=N/N5CCN(C)CC5)c(O)c4c3C2=O)NC(=O)/C(C)=C\C=C\[C@H](C)[C@H](O)[C@@H](C)[C@@H](O)[C@@H](C)[C@H](OC(C)=O)[C@@H]1C	13016 (serotype 4)		0.4 µg/mL
NC[C@@H]1O[C@H](O[C@H]2[C@@H](O)[C@H](O[C@@H]3[C@@H](O)[C@H](N)C[C@H](N)[C@H]3O[C@H]3O[C@H](CO)[C@@H](O)C[C@H]3N)O[C@@H]2CO)[C@H](N)[C@@H](O)[C@@H]1O[C@H]1O[C@H](CO)[C@@H](O)[C@H](O)[C@@H]1O	Isolate 122		50 µg/mL
CC1COc2c(N3CCN(C)CC3)c(F)cc3c(=O)c(C(=O)O)cn1c23	1295/HIV-		4 µg/mL
CC[C@H]1OC(=O)[C@H](C)[C@@H](O[C@H]2C[C@@](C)(OC)[C@@H](O)[C@H](C)O2)[C@H](C)[C@@H](O[C@@H]2O[C@H](C)C[C@H](N(C)C)[C@H]2O)[C@](C)(OC)C[C@@H](C)C(=O)[C@H](C)[C@@H](O)[C@]1(C)O	1124		2 µg/mL
CC(C)N=c1cc2n(-c3ccc(Cl)cc3)c3ccccc3nc-2cc1Nc1ccc(Cl)cc1	541/HIV+		0.25 µg/mL
CN[C@@H]1[C@H](O[C@H]2[C@H](O[C@H]3[C@H](O)[C@@H](O)[C@H](N=C(N)N)[C@@H](O)[C@@H]3N=C(N)N)O[C@@H](C)[C@]2(O)C=O)O[C@@H](CO)[C@H](O)[C@H]1O	Isolate C-18		50 µg/mL
NNC(=O)c1ccncc1	866		>16 µg/mL
CN[C@@H]1[C@H](O[C@H]2[C@H](O[C@H]3[C@H](O)[C@@H](O)[C@H](N=C(N)N)[C@@H](O)[C@@H]3N=C(N)N)O[C@@H](C)[C@]2(O)C=O)O[C@@H](CO)[C@H](O)[C@H]1O	Isolate 64		100 µg/mL
O=C(O)c1cn(C2CC2)c2c(F)c(N3CCSCC3)c(F)cc2c1=O	1988557		4 µg/mL

Lines come from different laboratories, so protocols vary.